Results reported in PMC9247160, “SARS-CoV-2 Omicron Variants Reduce Antibody Neutralization and Acquire Usage of Mouse ACE2” (2022).

Key:
[1] = biological target: SARS-CoV-2 Omicron BA.2 spike protein (SARS-CoV-2) (UniProt P0DTC2); test: flow cytometry on cells
[2] = biological target: SARS-CoV-2 Omicron BA.1 spike protein (SARS-CoV-2) (UniProt P0DTC2); test: flow cytometry on cells
[3] = biological target: SARS-CoV-2 Omicron BA.1.1 spike protein (SARS-CoV-2) (UniProt P0DTC2); test: flow cytometry on cells
[4] = biological target: SARS-CoV-2 spike protein, original wildtype strain Wuhan-Hu-1 (SARS-CoV-2) (UniProt P0DTC2)
[5] = biological target: SARS-CoV-2 Omicron BA.2 spike protein (SARS-CoV-2) (UniProt P0DTC2)
[6] = biological target: SARS-CoV-2 Omicron BA.1 spike protein (SARS-CoV-2) (UniProt P0DTC2)
[7] = biological target: SARS-CoV-2 Omicron BA.1.1 spike protein (SARS-CoV-2) (UniProt P0DTC2)

Substance	fold change of spike binding (nTFI) relative to D614G spike [1] [fold]	fold change of spike binding (nTFI) relative to D614G spike [2] [fold]	fold change of spike binding (nTFI) relative to D614G spike [3] [fold]	IC50 of neutralisation of WT pseudovirus, HeLa-hACE2 cells [4] [µg/mL]	IC50 of neutralisation of WT pseudovirus, Huh7 cells [4] [µg/mL]	IC50 of neutralisation of BA.2 pseudovirus, HeLa-hACE2 cells [5] [µg/mL]	IC50 of neutralisation of BA.2 pseudovirus, Huh7 cells [5] [µg/mL]	IC50 of neutralisation of BA.1 pseudovirus, HeLa-hACE2 cells [6] [µg/mL]	IC50 of neutralisation of BA.1 pseudovirus, Huh7 cells [6] [µg/mL]	IC50 of neutralisation of BA.1.1 pseudovirus, HeLa-hACE2 cells [7] [µg/mL]	IC50 of neutralisation of BA.1.1 pseudovirus, Huh7 cells [7] [µg/mL]
AZ combo (COV2-2196 + COV2-2130)	1	1.2	1.1	0.004	0.005	0.026	0.009	0.37	0.6	3.49	1.75
CB6 (antibody)	< -200	< -200	< -200	0.037	0.06	> 100	> 100	> 100	> 100	> 100	> 100
COV2-2196 (antibody)	-1.3	1.5	1.6	0.001	0.007	17.5	9.09	2.05	9.98	19.2	10.5
REGN Combo (REGN10933 + REGN10987)	-1.3	-7	-6.8	0.003	0.005	0.794	0.264	3.13	12	13.9	3.52
